{
  "source": "ChEMBL document CHEMBL3808355",
  "about": "“Systematic evaluation of methyl ester bioisosteres in the context of developing alkenyldiarylmethanes (ADAMs) as non-nucleoside reverse transcriptase inhibitors (NNRTIs) for anti-HIV-1 chemotherapy” (Bioorg Med Chem, 2016)",
  "target": "Human immunodeficiency virus type 1 reverse transcriptase (Human immunodeficiency virus 1, UniProt Q72547, K103N)",
  "assay": "Inhibition of HIV-1 BH10 recombinant reverse transcriptase K103N mutant expressed in Escherichia coli assessed as incorporation of [32P]GTP into poly(rA)/oligo(dT) as template primer",
  "set-up": "species or system Human immunodeficiency virus type 1 BH10",
  "data": [
    {"smiles": "Cc1cc(C#N)cc(C)c1Oc1nc(Nc2ccc(C#N)cc2)nc(N)c1Br", "note": "[ETRAVIRINE]", "values": [
      {"measurement": "IC50", "value": 0.018, "unit": "µM"}
    ]}
  ]
}
